Data set [1] is described as follows: Plasma lipid mediator levels in reference plasma, healthy volunteers and sepsis patients (LC-MS-MS). Format: in vivo, human. Particulars: endogenous level; for Reference Plasma lipid mediator level: NIST SRM 1950 plasma, mean; for Healthy Volunteer lipid mediator level / Sepsis Patients Plasma lipid mediator level: plasma; for Healthy Volunteer lipid mediator level: n=4, mean; for Sepsis Patients Plasma lipid mediator level: n=9, mean.

The nature of data set [2]: Peripheral blood lipid mediator profiles pre and post-exercise in healthy volunteers (LC-MS-MS). Type of data set: in vivo, human. Particulars: endogenous level, mean, n=4.
Data set [3] is described as follows: Peripheral blood lipid mediator profiles during self-resolving E. coli infections in mice. Format: in vivo. The settings on record: endogenous level, E. coli 1×10^5 CFU/mouse.

Consider `CC[C@@H](O)/C=C/C=C\C/C=C\C/C=C\C=C\[C@@H](O)CCCC(=O)O` [RvE2], for which, in data set [1], the “Reference Plasma lipid mediator level” value is recorded as “* (*below limits; limits ~0.1 pg.)”, the “Healthy Volunteer lipid mediator level” value worked out at 3.7 pg/mL and the “Sepsis Patients Plasma lipid mediator level” value worked out at 24.7 pg/mL. In data set [2], the “Post-Exercise lipid mediator level” value was 32.5 pg/mL and the “Pre-Exercise lipid mediator level” value turned out to be 39.1 pg/mL. In addition, in data set [3], the “lipid mediator level 0 h” value amounted to 14.0 pg/mL, the “lipid mediator level 4 h” value was 88.5 pg/mL, the “lipid mediator level 12 h” value worked out at 139.0 pg/mL and the “lipid mediator level 24 h” value stood at 85.0 pg/mL. In addition, the “lipid mediator level 48 h” value in data set [3] worked out at 44.4 pg/mL.

For the compound `CC[C@H](O)C(O)/C=C/C=C/C=C\C/C=C\C/C=C\CCCC(=O)O` (stereo partly drawn) [RvE3], in data set [1], the “Reference Plasma lipid mediator level” value turned out to be 1.5 pg/mL, the “Healthy Volunteer lipid mediator level” value came out at 8.9 pg/mL and the “Sepsis Patients Plasma lipid mediator level” value was 361.3 pg/mL. Besides, in data set [2], the “Post-Exercise lipid mediator level” value turned out to be 69.3 pg/mL and the “Pre-Exercise lipid mediator level” value came to 29.1 pg/mL. In data set [3], the “lipid mediator level 0 h” value is 39.4 pg/mL, the “lipid mediator level 4 h” value stood at 229.4 pg/mL, the “lipid mediator level 12 h” value was 356.3 pg/mL and the “lipid mediator level 24 h” value was determined as 155.7 pg/mL. In data set [3], the “lipid mediator level 48 h” value was 104.9 pg/mL.

In the case of `CC/C=C\C[C@H](O)/C=C/C=C\C/C=C\C=C\[C@@H](O)C/C=C\CCC(=O)O` [RvD5], in data set [1], the “Reference Plasma lipid mediator level” value stood at 0.8 pg/mL, the “Healthy Volunteer lipid mediator level” value was 0.9 pg/mL and the “Sepsis Patients Plasma lipid mediator level” value amounted to 17.0 pg/mL. For the same compound, in data set [2], the “Post-Exercise lipid mediator level” value came to 0.9 pg/mL and the “Pre-Exercise lipid mediator level” value is 0.7 pg/mL. Also, in data set [3], the “lipid mediator level 0 h” value was 22.7 pg/mL, the “lipid mediator level 4 h” value amounted to 16.9 pg/mL, the “lipid mediator level 12 h” value amounted to 25.1 pg/mL and the “lipid mediator level 24 h” value was found to be 8.7 pg/mL. The “lipid mediator level 48 h” value in data set [3] amounted to 9.2 pg/mL.

Turning to “7,8,13-trihydroxy-docosapentaenoic [RvT2]”, in data set [3], the “lipid mediator level 0 h” value was determined as 9.4 pg/mL, the “lipid mediator level 4 h” value was 50.3 pg/mL, the “lipid mediator level 12 h” value amounted to 14.1 pg/mL and the “lipid mediator level 24 h” value was 5.2 pg/mL. In addition, in data set [3], the “lipid mediator level 48 h” value is 5.2 pg/mL.

Regarding `CCCCCC(O)/C=C/C=C\C/C=C\C=C\C(O)CCCC(=O)O` (stereo not drawn) [5,15-diHETE], in data set [1], the “Reference Plasma lipid mediator level” value is 4.2 pg/mL, the “Healthy Volunteer lipid mediator level” value turned out to be 6.2 pg/mL and the “Sepsis Patients Plasma lipid mediator level” value amounted to 87.1 pg/mL. Further, in data set [2], the “Post-Exercise lipid mediator level” value amounted to 89.1 pg/mL and the “Pre-Exercise lipid mediator level” value was 74.0 pg/mL. In data set [3], the “lipid mediator level 0 h” value turned out to be 95.0 pg/mL, the “lipid mediator level 4 h” value came out at 121.1 pg/mL, the “lipid mediator level 12 h” value stood at 51.6 pg/mL and the “lipid mediator level 24 h” value worked out at 36.4 pg/mL. The “lipid mediator level 48 h” value in data set [3] worked out at 19.2 pg/mL.

As for `CCCCC/C=C\C[C@@H](O)/C=C/C=C/C=C\[C@@H](O)CCCC(=O)O` [LTB4, leukotriene B4], in data set [1], the “Reference Plasma lipid mediator level” value stood at 25.2 pg/mL, the “Healthy Volunteer lipid mediator level” value amounted to 3.7 pg/mL and the “Sepsis Patients Plasma lipid mediator level” value was 3.3 pg/mL. In data set [2], the “Post-Exercise lipid mediator level” value was determined as 14.4 pg/mL and the “Pre-Exercise lipid mediator level” value is 4.5 pg/mL. Further, in data set [3], the “lipid mediator level 0 h” value came to 0.7 pg/mL, the “lipid mediator level 4 h” value came to 100.3 pg/mL, the “lipid mediator level 12 h” value stood at 35.9 pg/mL and the “lipid mediator level 24 h” value was found to be 12.0 pg/mL. The “lipid mediator level 48 h” value in data set [3] is 106.9 pg/mL.

As for `CCC(O)/C=C/C=C\C=C\C(O)C/C=C\C=C\C(O)CCCCCC(=O)O` (stereo not drawn) [RvT1, 7,13,20-trihydroxy-docosapentaenoic acid], in data set [3], the “lipid mediator level 0 h” value came to 6.4 pg/mL, the “lipid mediator level 4 h” value stood at 34.6 pg/mL, the “lipid mediator level 12 h” value turned out to be 12.6 pg/mL and the “lipid mediator level 24 h” value was 6.8 pg/mL. Besides, the “lipid mediator level 48 h” value in data set [3] was 10.3 pg/mL.

In the case of `CCCCC[C@H](O)/C=C/[C@@H]1[C@@H](C/C=C\CCCC(=O)O)[C@@H](O)C[C@H]1O` [PGF2a], in data set [1], the “Reference Plasma lipid mediator level” value is 1.7 pg/mL, the “Healthy Volunteer lipid mediator level” value was 4.2 pg/mL and the “Sepsis Patients Plasma lipid mediator level” value came out at 51.0 pg/mL. Besides, in data set [2], the “Post-Exercise lipid mediator level” value stood at 12.9 pg/mL and the “Pre-Exercise lipid mediator level” value was found to be 4.4 pg/mL. In addition, in data set [3], the “lipid mediator level 0 h” value is 3.3 pg/mL, the “lipid mediator level 4 h” value turned out to be 153.0 pg/mL, the “lipid mediator level 12 h” value worked out at 57.5 pg/mL and the “lipid mediator level 24 h” value was 12.2 pg/mL. In data set [3], the “lipid mediator level 48 h” value was 26.7 pg/mL.

Turning to `CCCCCC(O)/C=C/C=C/C/C=C/CCCC(=O)O` (stereo not drawn) [12-HHT], in data set [1], the “Reference Plasma lipid mediator level” value was found to be 21.8 pg/mL, the “Healthy Volunteer lipid mediator level” value is 39.6 pg/mL and the “Sepsis Patients Plasma lipid mediator level” value came to 127.7 pg/mL. Besides, in data set [2], the “Post-Exercise lipid mediator level” value amounted to 177.6 pg/mL and the “Pre-Exercise lipid mediator level” value was found to be 109.0 pg/mL. In data set [3], the “lipid mediator level 0 h” value is 89.8 pg/mL, the “lipid mediator level 4 h” value was 12598.1 pg/mL, the “lipid mediator level 12 h” value is 12879.5 pg/mL and the “lipid mediator level 24 h” value was determined as 3208.8 pg/mL. The “lipid mediator level 48 h” value in data set [3] is 4237.5 pg/mL.

As to `CC[C@@H](O)/C=C/C=C\C[C@@H](O)/C=C/C=C/C=C\[C@@H](O)CCCC(=O)O` [RvE1], in data set [1], the “Reference Plasma lipid mediator level” value was “* (*below limits; limits ~0.1 pg.)”, the “Healthy Volunteer lipid mediator level” value amounted to 2.2 pg/mL and the “Sepsis Patients Plasma lipid mediator level” value stood at 11.0 pg/mL. In addition, in data set [2], the “Post-Exercise lipid mediator level” value stood at 1.5 pg/mL and the “Pre-Exercise lipid mediator level” value was found to be 0.6 pg/mL. Besides, in data set [3], the “lipid mediator level 0 h” value is 0.6 pg/mL, the “lipid mediator level 4 h” value stood at 0.2 pg/mL, the “lipid mediator level 12 h” value was determined as 2.2 pg/mL and the “lipid mediator level 24 h” value came out at 0.6 pg/mL. Also, the “lipid mediator level 48 h” value in data set [3] worked out at 2.7 pg/mL.

In the case of `CCCCC[C@H](O)/C=C/[C@H]1OC(O)C[C@H](O)[C@@H]1C/C=C\CCCC(=O)O` (stereo partly drawn) [TxB2], in data set [1], the “Reference Plasma lipid mediator level” value was found to be 6.3 pg/mL, the “Healthy Volunteer lipid mediator level” value was determined as 10.5 pg/mL and the “Sepsis Patients Plasma lipid mediator level” value amounted to 185.4 pg/mL. Further, in data set [2], the “Post-Exercise lipid mediator level” value is 36.2 pg/mL and the “Pre-Exercise lipid mediator level” value was found to be 4.8 pg/mL. Also, in data set [3], the “lipid mediator level 0 h” value stood at 24.9 pg/mL, the “lipid mediator level 4 h” value stood at 1773.7 pg/mL, the “lipid mediator level 12 h” value amounted to 471.4 pg/mL and the “lipid mediator level 24 h” value was 214.3 pg/mL. In addition, the “lipid mediator level 48 h” value in data set [3] was 176.5 pg/mL.

Turning to `CC/C=C\C[C@H](O)/C=C/C=C\C[C@@H](O)/C=C/C=C/C=C\[C@@H](O)CCC(=O)O` [RvD3], in data set [1], the “Reference Plasma lipid mediator level” value is “* (*below limits; limits ~0.1 pg.)”, the “Healthy Volunteer lipid mediator level” value is given as “* (*below limits; limits ~0.1 pg.)” and the “Sepsis Patients Plasma lipid mediator level” value came to 10.5 pg/mL. For the same compound, in data set [2], the “Post-Exercise lipid mediator level” value was 0.5 pg/mL and the “Pre-Exercise lipid mediator level” value came out at 0.4 pg/mL. For the same compound, in data set [3], the “lipid mediator level 0 h” value amounted to 2.6 pg/mL, the “lipid mediator level 4 h” value turned out to be 6.3 pg/mL, the “lipid mediator level 12 h” value came to 2.7 pg/mL and the “lipid mediator level 24 h” value came to 1.1 pg/mL. Also, the “lipid mediator level 48 h” value in data set [3] worked out at 6.1 pg/mL.

On to `CC/C=C\C[C@H](O)/C=C/C=C\C/C=C\C/C=C\C=C\[C@@H](O)CCC(=O)O` [RvD6], for which, in data set [3], the “lipid mediator level 0 h” value was found to be 51.4 pg/mL, the “lipid mediator level 4 h” value stood at 346.8 pg/mL, the “lipid mediator level 12 h” value turned out to be 435.8 pg/mL and the “lipid mediator level 24 h” value came to 259.3 pg/mL. Further, the “lipid mediator level 48 h” value in data set [3] came out at 219.4 pg/mL.

As for `CC/C=C\C/C=C\C=C\C(O)C/C=C\C=C\C(O)CCCCCC(=O)O` (stereo not drawn) [RvT4, 7,13-dihydroxy-docosapentaenoic acid], in data set [3], the “lipid mediator level 0 h” value is 10.2 pg/mL, the “lipid mediator level 4 h” value was found to be 45.5 pg/mL, the “lipid mediator level 12 h” value is 10.4 pg/mL and the “lipid mediator level 24 h” value stood at 5.1 pg/mL. In addition, the “lipid mediator level 48 h” value in data set [3] was determined as 4.8 pg/mL.

For `CCCCC[C@H](O)/C=C/[C@@H]1[C@H](C/C=C\CCCC(=O)O)[C@@H](O)C[C@H]1O` [8-iso-PGF2a], in data set [1], the “Reference Plasma lipid mediator level” value is 4.5 pg/mL, the “Healthy Volunteer lipid mediator level” value stood at 1.9 pg/mL and the “Sepsis Patients Plasma lipid mediator level” value stood at 11.8 pg/mL. In data set [2], the “Post-Exercise lipid mediator level” value was found to be 3.9 pg/mL and the “Pre-Exercise lipid mediator level” value came to 6.6 pg/mL. In addition, in data set [3], the “lipid mediator level 0 h” value is 8.1 pg/mL, the “lipid mediator level 4 h” value came to 227.6 pg/mL, the “lipid mediator level 12 h” value worked out at 255.0 pg/mL and the “lipid mediator level 24 h” value is 64.5 pg/mL. Further, the “lipid mediator level 48 h” value in data set [3] was determined as 71.6 pg/mL.

For `CCC=CCC=CC=CC(O)C(O)C=CC=CC(O)CCCCCC(=O)O` (stereo not drawn) [RvT3, 7,12,13-trihydroxy-docosapentaenoic acid], in data set [3], the “lipid mediator level 0 h” value came out at 11.5 pg/mL, the “lipid mediator level 4 h” value worked out at 32.7 pg/mL, the “lipid mediator level 12 h” value was found to be 16.4 pg/mL and the “lipid mediator level 24 h” value is 3.3 pg/mL. In data set [3], the “lipid mediator level 48 h” value came to 5.2 pg/mL.

The values above are taken from US11555006B2, “Elucidation of novel 13-series resolvins that increase with atorvastatin and clear infections” (The Brigham and Women's Hospital, Inc., priority 2015, dated 2023).
